How the values were obtained:
Type in all cases: binding
[1] = molecular target: T1, HIV-1 YU2 gp120 glycoprotein V430A (Human immunodeficiency virus type 1 group M subtype B, UniProt P35961, V417A)
T1 construct: (His)6 (C); made in house; host or cells: 293F cells

[2] = molecular target: T2, HIV-1 YU2 gp120 glycoprotein D368A/S375A (Human immunodeficiency virus type 1 group M subtype B, UniProt P35961, D363A/S370A)
T2 construct: (His)6 (C); made in house; host or cells: 293F cells

[3] = molecular target: T3, HIV-1 YU2 gp120 glycoprotein D368A (Human immunodeficiency virus type 1 group M subtype B, UniProt P35961, D363A)
T3 construct: (His)6 (C); made in house; host or cells: 293F cells

[4] = molecular target: T4, HIV-1 YU2 gp120 glycoprotein S375A (Human immunodeficiency virus type 1 group M subtype B, UniProt P35961, S370A)
T4 construct: (His)6 (C); made in house; host or cells: 293F cells

**Q.** NBD-556 was tested. Which Kd [1] did it give?
**A.** 3500 nM

**Q.** What about the Kd [2] of the same substance?
**A.** 260 nM

**Q.** And the Kd [3]?
**A.** 2200 nM

**Q.** And the Kd [4]?
**A.** 310 nM

Source: patent publication US9776963B2, “Small molecule CD4 mimetics and uses thereof” (priority 2008, dated 2017)
